## Percent effect of library compounds

Mtb cholesterol medium: 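Whole-cell growth test on Mycobacterium tuberculosis, read after 4 days in a medium based on cholesterol and the lipid DPPC; the read-out is not stated. Compounds at 500 µM. The record gives no direction; compounds that gave an IC50 in retests scored well above the rest, so higher reads as more growth inhibition. Size under these conditions: about 18,000 compounds, about 900 of them at 50% or above in at least one test.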
Mtb glucose medium: 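Phenotypic screen: M. tuberculosis growth, glucose 7H9 medium, 3 days; the read-out is not stated. Compounds at 500 µM. Direction is inferred from retests: higher values go with more growth inhibition. About 18,000 compounds were tested under these conditions; 7.9% (about 1,400) showed 50% or more at least once.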

The filed quantity is “Percent Effect” (%).
The controls that fix the scale are not given in the record; negative values are as filed.
The entries come from a sample that favours strong results.
A dash means the value is not listed here; it may have been measured.

SMILES	Mtb cholesterol medium	Mtb glucose medium
N#CCOc1ccc(NC(=O)c2ccncc2)cc1	-	32%
OC1(c2ccccc2)CCCNC1 (stereo not given)	-	-11.54%
NCC(CO)Cc1ccc(Br)cc1 (stereo not given)	21.61%	49.76%
Brc1cccc2c1CNCCO2	39.8%	51.78%
CCN(CC)CCNC(=O)Nc1nnc2ccccn12	4.726%	-
CCn1cnc2ccc(C(=O)NC3CC3)cc2c1=O	-	9.49%
Nc1ccc(CNc2nc(C3CC3)ns2)cn1	-	60.16%
CCN(Cc1nc(C)cs1)[C@H]1COC[C@@H]1O	-	5.961%
Cc1cc(C)n(CC(C)CN)n1 (stereo not given)	12.64%	-
CC(C)=CCO[C@@H]1COCC[C@H]1NC(=O)CN(C)C	-	8.002%
CCN(CC)C(=O)[C@@H]1C[C@@H](N)CN1C(=O)COC	-	-1.392%
CC(C)N1CCC(NC(=O)C2=NN(C)C(=O)CC2)CC1	-	-7.543%
c1ccc(-n2nnnc2CN2CCCNCC2)cc1	-0.8454%	-
Cc1ccc(F)cc1C(=O)N1CCNCC1	-	-2.474%
COCCOCCn1cc(F)ccc1=O	-	-9.678%
COc1ccccc1CNC(=O)CC(F)(F)F	-7.327%	-
CS(=O)(=O)NCc1ccnc(Oc2ccc(F)cc2)c1	-	55.38%
COC(=O)c1ccccc1NC(=O)c1csnn1	-	-6.098%
C[S+]([O-])c1nncn1Cc1ccccc1Cl (stereo not given)	-	20.47%
Cc1nnc(C(C)NC(=O)c2ccc(CO)cc2)o1 (stereo not given)	-	-2.334%
CCNC(=O)CCS(=O)(=O)c1cccc(Cl)c1	-	3.43%
CC1CCN(CC(=O)N(C)Cc2ccccn2)CC1	-	3.867%
O=C(NCCCNCc1ccccc1)c1ccco1	14.57%	7.599%
CC(C)[C@H](N)C(=O)N1CCc2c(F)cccc2C1	10.81%	-

For reference, 2 entries once more:

{"smiles": "CCNC(=O)CCS(=O)(=O)c1cccc(Cl)c1", "Mtb glucose medium": 3.43}
{"smiles": "CC(C)N1CCC(NC(=O)C2=NN(C)C(=O)CC2)CC1", "Mtb glucose medium": -7.543}

Measurements from “University of Dundee, Small-Polar-MMV Screening Library” (2021), ChEMBL document CHEMBL3988442.